A mixed list of measured activities; the numbers were collected in NIAID ChemDB.

Shared fields: tests in culture; species: Mycobacterium avium complex; read-out: MIC

An empty or dashed field is not shown. Rows are shuffled and stem from different studies.

| smiles | strain or isolate | method | result |
|---|---|---|---|
| CC[C@H]1OC(=O)[C@H](C)[C@@H](O[C@H]2C[C@@](C)(OC)[C@@H](O)[C@H](C)O2)[C@H](C)[C@@H](O[C@@H]2O[C@H](C)C[C@H](N(C)C)[C@H]2O)[C@](C)(OC)C[C@@H](C)C(=O)[C@H](C)[C@@H](O)[C@]1(C)O | 866 | - | 2 µg/mL |
| CC[C@@H](CO)NCCN[C@@H](CC)CO | 13034 (serotype 18) | - | 3.2 µg/mL |
| COC1CCN(c2c(F)cc3c(=O)c(C(=O)O)cn(C4CC4)c3c2F)C1 | 1915112 | - | 1 µg/mL |
| NCC[C@H](O)C(=O)N[C@@H]1C[C@H](N)[C@@H](O[C@H]2O[C@H](CN)[C@@H](O)[C@H](O)[C@H]2O)[C@H](O)[C@H]1O[C@H]1O[C@H](CO)[C@@H](O)[C@H](N)[C@H]1O | 1171 | - | 10 µg/mL |
| O=C(O)c1cn(C2CC2)c2c(F)c(N3CCC(n4ccnc4)C3)c(F)cc2c1=O | 1172733 | - | 16 µg/mL |
| CC1COc2c(N3CCN(C)CC3)c(F)cc3c(=O)c(C(=O)O)cn1c23 | CIPT 140310034 | - | 10 µg/mL |
| C[C@@H]1CN(c2c(F)c(N)c3c(=O)c(C(=O)O)cn(C4CC4)c3c2F)C[C@H](C)N1 | 15 | broth dilution | ≤0.06 µg/mL |
| O=C(O)c1cn(C2CC2)c2c(F)c(N3CCS(=O)CC3)c(F)cc2c1=O | PI12/39 | - | 4 µg/mL |
| CC1CN(c2cc3c(cc2F)c(=O)c(C(=O)O)cn3-c2ccc(F)cc2F)CCN1 | 3218 | - | 4 µg/mL |
| CCn1cc(C(=O)O)c(=O)c2cc(F)c(N3CCNCC3)cc21 | CIPT 14031006 | - | 2 µg/mL |
| CC1CN(c2c(F)c(N)c3c(=O)c(C(=O)O)cn(C4CC4)c3c2F)CCN1C | PI12/39 | - | 0.5 µg/mL |
| NC[C@@H]1O[C@H](O[C@H]2[C@@H](O)[C@H](O[C@@H]3[C@@H](O)[C@H](N)C[C@H](N)[C@H]3O[C@H]3O[C@H](CO)[C@@H](O)[C@H](O)[C@H]3N)O[C@@H]2CO)[C@H](N)[C@@H](O)[C@@H]1O | 163 | - | <1.56 µg/mL |
| NCC[C@H](O)C(=O)N[C@@H]1C[C@H](N)[C@@H](O[C@H]2O[C@H](CN)[C@@H](O)[C@H](O)[C@H]2O)[C@H](O)[C@H]1O[C@H]1O[C@H](CO)[C@@H](O)[C@H](N)[C@H]1O | 3218 | - | 32 µg/mL |
| CC1COc2c(N3CCN(C)CC3)c(F)cc3c(=O)c(C(=O)O)cn1c23 | 551/HIV+ | - | 8 µg/mL |
| NC[C@H]1O[C@H](O[C@H]2[C@H](O)[C@@H](O[C@H]3O[C@H](CO)[C@@H](O)[C@H](N)[C@H]3O)[C@H](N)C[C@@H]2N)[C@H](O)[C@@H](O)[C@@H]1O | TMC 1411 | - | 0.19 µg/mL |
| NC[C@H]1O[C@H](O[C@H]2[C@H](O)[C@@H](O[C@H]3O[C@H](CO)[C@@H](O)[C@H](N)[C@H]3O)[C@H](N)C[C@@H]2N)[C@H](O)[C@@H](O)[C@@H]1O | N-976 (HIV+) | - | 2 µg/mL |
| O=C(O)c1cn(C2CC2)c2c(F)c(N3CCC(NC4CC4)C3)c(F)cc2c1=O | 1760694 | - | 8 µg/mL |
| CO[C@H]1/C=C/O[C@@]2(C)Oc3c(C)c(O)c4c(O)c(c5c(c4c3C2=O)NC2(CCN(CC(C)C)CC2)N=5)=NC(=O)/C(C)=C\C=C\[C@H](C)[C@H](O)[C@@H](C)[C@@H](O)[C@@H](C)[C@H](OC(C)=O)[C@@H]1C | 242-5 | - | 0.125 µg/mL |
| NC[C@H]1O[C@H](O[C@H]2[C@H](O)[C@@H](O[C@H]3O[C@H](CO)[C@@H](O)[C@H](N)[C@H]3O)[C@H](N)C[C@@H]2N)[C@H](N)[C@@H](O)[C@@H]1O | TMC 1406 | - | 0.1 µg/mL |
| CN1CCN(c2cc3c(cc2F)c(=O)c(C(=O)O)cn3-c2ccc(F)cc2)CC1 | 3220 | - | 32 µg/mL |
| CN[C@@H]1[C@@H](O)[C@@H](O[C@@H]2[C@@H](O)[C@H](O[C@H]3O[C@H](CN)CC[C@H]3N)[C@@H](N)C[C@H]2N)OC[C@]1(C)O | TMC 1411 | - | <0.01 µg/mL |
| CC[C@@H](CO)NCCN[C@@H](CC)CO | N-314 (HIV-) | - | 8 µg/mL |
| CN[C@@H]1[C@H](O[C@H]2[C@H](O[C@H]3[C@H](O)[C@@H](O)[C@H](N=C(N)N)[C@@H](O)[C@@H]3N=C(N)N)O[C@@H](C)[C@]2(O)C=O)O[C@@H](CO)[C@H](O)[C@H]1O | Isolate C-39 | - | ≥100 µg/mL |
| C[C@@H]1CN(c2c(F)c(N)c3c(=O)c(C(=O)O)cn(C4CC4)c3c2F)C[C@H](C)N1 | 1172733 | - | 2 µg/mL |
| NNC(=O)c1ccncc1 | 13887 (serotype 14) | - | 3.2 µg/mL |
| NC[C@@H]1O[C@H](O[C@H]2[C@@H](O)[C@H](O[C@@H]3[C@@H](O)[C@H](N)C[C@H](N)[C@H]3O[C@H]3O[C@H](CO)[C@@H](O)C[C@H]3N)O[C@@H]2CO)[C@H](N)[C@@H](O)[C@@H]1O[C@H]1O[C@H](CO)[C@@H](O)[C@H](O)[C@@H]1O | Isolate 93 | - | 3.13 µg/mL |
| CC[C@@H](CO)NCCN[C@@H](CC)CO | 1110/HIV- | - | <2 µg/mL |
| CO[C@H]1/C=C/O[C@@]2(C)Oc3c(C)c(O)c4c(O)c(c(/C=N/N5CCN(C/C=C/c6ccccc6)CC5)c(O)c4c3C2=O)NC(=O)/C(C)=C\C=C\[C@H](C)[C@H](O)[C@@H](C)[C@@H](O)[C@@H](C)[C@H](OC(C)=O)[C@@H]1C | SK-12 | - | 0.06 µg/mL |
| NCC[C@H](O)C(=O)N[C@@H]1C[C@H](N)[C@@H](O[C@H]2O[C@H](CN)[C@@H](O)[C@H](O)[C@H]2O)[C@H](O)[C@H]1O[C@H]1O[C@H](CO)[C@@H](O)[C@H](N)[C@H]1O | 536/HIV+ | - | 0.61 µg/mL |

The last 3 rows once more:

smiles,strain or isolate,method,result
CC[C@@H](CO)NCCN[C@@H](CC)CO,1110/HIV-,-,<2 µg/mL
CO[C@H]1/C=C/O[C@@]2(C)Oc3c(C)c(O)c4c(O)c(c(/C=N/N5CCN(C/C=C/c6ccccc6)CC5)c(O)c4c3C2=O)NC(=O)/C(C)=C\C=C\[C@H](C)[C@H](O)[C@@H](C)[C@@H](O)[C@@H](C)[C@H](OC(C)=O)[C@@H]1C,SK-12,-,0.06 µg/mL
NCC[C@H](O)C(=O)N[C@@H]1C[C@H](N)[C@@H](O[C@H]2O[C@H](CN)[C@@H](O)[C@H](O)[C@H]2O)[C@H](O)[C@H]1O[C@H]1O[C@H](CO)[C@@H](O)[C@H](N)[C@H]1O,536/HIV+,-,0.61 µg/mL